The record followed here is ChEMBL document CHEMBL1151434 (Antimicrob Agents Chemother, 2007).

The subject of the assay is Chlamydia psittaci 6BC. In words: Antibacterial activity against 0.01 MOI wild type Chlamydia psittaci 6BC BCRB infected in mouse L2 cells treated 2 hrs after infection measured on day 7 by plaque assay. It is filed as functional.

Converted amounts (≈) assume the structure as drawn.

Consider `O=C(N[C@H](CO)[C@H](O)c1ccc([N+](=O)[O-])cc1)C(Cl)Cl` [CHLORAMPHENICOL], for which the MIC is 0.4 µg/mL (≈ 1.24 µM).
